{
  "source": "PubChem BioAssay AID540257",
  "about": "(Southern Research Specialized Biocontainment Screening …, 2011)",
  "note": "Only a part is listed here, and it is no random draw. Measured potencies and affinities stand elsewhere. Activity calls are given as the source filed them. How the calls were made is not given here.",
  "data": [
    {"experiment": "antiviral activity against H1N1 influenza, dose response, cell-based, strain KY136 (AID 540257)", "details": "H1N1 KY136 influenza antiviral cell assay, % inhibition; at 40 µM (top of the series)", "values": [
      {"smiles": "COc1cc(C(=O)NCC2(N3CCOCC3)CCCCC2)cc(Cl)c1OC(C)C", "inhibition": "inactive: -13.8%"},
      {"smiles": "CCC(C)N(CC(C)C)C(=S)SC(NC(C)=O)C(Cl)(Cl)Cl", "note": "(configuration not stated)", "inhibition": "inactive: -2.48%"}
    ]}
  ]
}
